Results published in paper PMC11098746 (2024).

Target: Circumsporozoite protein (CSP) (Plasmodium falciparum (isolate 3D7))
Assay: AVEXIS screen signal:noise (double-corrected)

B1: ADP369 (protein)
chain: MGAAAGRSPHLGPAPARRPQRSLLLLQLLLLVAAPGSTQAQAAPFPELCSYTWEAVDTKNNVLYKINICGSVDIVQCGPSSAVCMHDLKTRTYHSVGDSVLRSATRSLLEFNTTVSCDQQGTNHRVQSSIAFLCGKTLGTPEFVTATECVHYFEWRTTAACKKDIFKANKEVPCYVFDEELRKHDLNPLIKLSGAYLVDDSDPDTSLFINVCRDIDTLRDPGSQLRACPPGTAACLVRGHQAFDVGQPRDGLKLVRKDRLVLSYVREEAGKLDFCDGHSPAVTITFVCPSERREGTIPKLTAKSNCRYEIEWITEYACHRDYLESKTCSLSGEQQDVSIDLTPLAQSGGSSYISDGKEYLFYLNVCGETEIQFCNKKQAAVCQVKKSDTSQVKAAGRYHNQTLRYSDGDLTLIYFGGDECSSGFQRMSVINFECNKTAGNDGKGTPVFTGEVDCTYFFTWDTEYACVKEKEDLLCGATDGKKRYDLSALVRHAEPEQNWEAVDGSQTETEKKHFFINICHRVLQEGKARGCPEDAAVCAVDKNGSKNLGKFISSPMKEKGNIQLSYSDGDDCGHGKKIKTNITLVCKPGDLESAPVLRTSGEGGCFYEFEWHTAAACVLSKTEGENCTVFDSQAGFSFDLSPLTKKNGAYKVETKKYDFYINVCGPVSVSPCQPDSGACQVAKSDEKTWNLGLSNAKLSYYDGMIQLNYRGGTPYNNERHTPRATLITFLCDRDAGVGFPEYQEEDNSTYNFRWYTSYACPEEPLECVVTDPSTLEQYDLSSLAKSEGGLGGNWYAMDNSGEHVTWRKYYINVCRPLNPVPGCNRYASACQMKYEKDQGSFTEVVSISNLGMAKTGPVVEDSGSLLLEYVNGSACTTSDGRQTTYTTRIHLVCSRGRLNSHPIFSLNWECVVSFLWNTEAACPIQTTTDTDQACSIRDPNSGFVFNLNPLNSSQGYNVSGIGKIFMFNVCGTMPVCGTILGKPASGCEAETQTEELKNWKPARPVGIEKSLQLSTEGFITLTYKGPLSAKGTADAFIVRFVCNDDVYSGPLKFLHQDIDSGQGIRNTYFEFETALACVPSPVDCQVTDLAGNEYDLTGLSTVRKPWTAVDTSVDGRKRTFYLSVCNPLPYIPGCQGSAVGSCLVSEGNSWNLGVVQMSPQAAANGSLSIMYVNGDKCGNQRFSTRITFECAQISGSPAFQLQDGCEYVFIWRTVEACPVVRVEGDNCEVKDPRHGNLYDLKPLGLNDTIVSAGEYTYYFRVCGKLSSDVCPTSDKSKVVSSCQEKREPQGFHKVAGLLTQKLTYENGLLKMNFTGGDTCHKVYQRSTAIFFYCDRGTQRPVFLKETSDCSYLFEWRTQYACPPFD
modifications: bait human Fc-tagged dimer
**Q.** How did the binding score turn out when B1 was run?
**A.** 0.692

B2: ADP113 (protein)
chain: MVRLPLQCVLWGCLLTAVHPEPPTACREKQYLINSQCCSLCQPGQKLVSDCTEFTETECLPCGESEFLDTWNRETHCHQHKYCDPNLGLRVQQKGTSETDTICTCEEGWHCTSEACESCVLHRSCSPGFGVKQIATGVSDTICEPCPVGFFSNVSSAFEKCHPWTSCETKDLVVQQAGTNKTDVVCGPQDRL
modifications: bait human Fc-tagged dimer
**Q.** Which binding score does the source give for B2 here?
**A.** 0.909

B3: ADP122 (protein)
chain: MVCFRLFPVPGSGLVLVCLVLGAVRSYALELNLTDSENATCLYAKWQMNFTVRYETTNKTYKTVTISDHGTVTYNGSICGDDQNGPKIAVQFGPGFSWIANFTKAASTYSIDSVSFSYNTGDNTTFPDAEDKGILTVDELLAIRIPLNDLFRCNSLSTLEKNDVVQHYWDVLVQAFVQNGTVSTNEFLCDKDKTSTVAPTIHTTVPSPTTTPTPKEKPEAGTYSVNNGNDTCLLATMGLQLNITQDKVASVININPNTTHSTGSCRSHTALLRLNSSTIKYLDFVFAVKNENRFYLKEVNISMYLVNGSVFSIANNNLSYWDAPLGSSYMCNKEQTVSVSGAFQINTFDLRVQPFNVTQGKYSTAQDCSADDDNFLVP
modifications: bait human Fc-tagged dimer
**Q.** Which binding score does the source give for B3 here?
**A.** 1.66

B4: ADP157 (protein)
chain: MGVPRPQPWALGLLLFLLPGSLGAESHLSLLYHLTAVSSPAPGTPAFWVSGWLGPQQYLSYNSLRGEAEPCGAWVWENQVSWYWEKETTDLRIKEKLFLEAFKALGGKGPYTLQGLLGCELGPDNTSVPTAKFALNGEEFMNFDLKQGTWGGDWPEALAISQRWQQQDKAANKELTFLLFSCPHRLREHLERGRGNLEWKEPPSMRLKARPSSPGFSVLTCSAFSFYPPELQLRFLRNGLAAGTGQGDFGPNSDGSFHASSSLTVKSGDEHHYCCIVQHAGLAQPLRVELESPAKSS
modifications: bait human Fc-tagged dimer
**Q.** B4 was tested. Which binding score did it give?
**A.** 0.924

B5: ADP134 (protein)
chain: MVSSVSWGILLLAGLCCLVPVSLAEDPQGDAAQKTDTSHHDQDHPTFNKITPNLAEFAFSLYRQLAHQSNSTNIFFSPVSIATAFAMLSLGTKADTHDEILEGLNFNLTEIPEAQIHEGFQELLRTLNQPDSQLQLTTGNGLFLSEGLKLVDKFLEDVKKLYHSEAFTVNFGDTEEAKKQINDYVEKGTQGKIVDLVKELDRDTVFALVNYIFFKGKWERPFEVKDTEEEDFHVDQVTTVKVPMMKRLGMFNIQHCKKLSSWVLLMKYLGNATAIFFLPDEGKLQHLENELTHDIITKFLENEDRRSASLHLPKLSITGTYDLKSVLGQLGITKVFSNGADLSGVTEEAPLKLSKAVHKAVLTIDEKGTEAAGAMFLEAIPMSIPPEVKFNKPFVFLMIEQNTKSPLFMGKVVNPTQK
modifications: bait human Fc-tagged dimer
**Q.** With B5 as the binder, how does the binding score read?
**A.** 1.6
